These results are taken from paper PMC4489319 (ACS Infectious Diseases, 2015).

What all share (experiment): purified protein
What all share (conditions): pH 8.5; 25.0 °C

For data set [1], the system named is C[C@H](CCC(=O)SCCNC(=O)CCNC(=O)[C@H](O)C(C)(C)COP(=O)(O)OP(=O)(O)OC[C@H]1O[C@@H](n2cnc3c(N)ncnc32)[C@H](O)[C@@H]1OP(=O)(O)O)[C@H]1CC[C@H]2[C@@H]3CCC4=CC(=O)CC[C@]4(C)[C@H]3CC[C@]12C.
For data set [2], the system named is CC(CCC[C@@H](C)[C@H]1CC[C@H]2[C@@H]3CCC4=CC(=O)CC[C@]4(C)[C@H]3CC[C@]12C)C(=O)SCCNC(=O)CCNC(=O)[C@H](O)C(C)(C)COP(=O)(O)OP(=O)(O)OC[C@H]1O[C@@H](n2cnc3c(N)ncnc32)[C@H](O)[C@@H]1OP(=O)(O)O.
Data set [3] relates to C[C@H](C(=O)SCCNC(=O)CCNC(=O)[C@H](O)C(C)(C)COP(=O)(O)OP(=O)(O)OC[C@H]1O[C@@H](n2cnc3c(N)ncnc32)[C@H](O)[C@@H]1OP(=O)(O)O)[C@H]1CC[C@H]2[C@@H]3CCC4=CC(=O)CC[C@]4(C)[C@H]3CC[C@]12C.
Data set [4] has as its system CCCCCCCC(=O)SCCNC(=O)CCNC(=O)[C@H](O)C(C)(C)COP(=O)(O)OP(=O)(O)OC[C@H]1O[C@@H](n2cnc3c(N)ncnc32)[C@H](O)[C@@H]1OP(=O)(O)O.

With “ChsE1-ChsE2 (Mycobacterium tuberculosis H37Rv)”, in data set [1], the Km – broadly, the substrate concentration at which the rate is half of its maximum – was determined as 6.5 ± 0.9 µM and the kcat/Km (commonly the turnover number divided by the Michaelis constant) stood at 24000 M⁻¹ s⁻¹.

Turning to “ChsE4-ChsE5 (Mycobacterium tuberculosis H37Rv)”, the Km in data set [2] was determined as 3.4 ± 1.0 µM; in data set [3], 3.3 ± 0.7 µM; in data set [4], 4.1 ± 0.9 µM; in data set [1] it was 2.6 ± 0.4 µM. Besides, the catalytic efficiency (kcat/Km) in data set [2] worked out at 810000 M⁻¹ s⁻¹; in data set [3], 450000 M⁻¹ s⁻¹; in data set [4], 10000 M⁻¹ s⁻¹; in data set [1], 190000 M⁻¹ s⁻¹.
